Tests used:
[1] = system: platelets suspended in 35% plasma/65% PAS III; assay: Partitioning and distribution of S-59 in platelet concentrate before and after UVA (3H-S-59, HPLC); details: 150 µM, 35% plasma/[…]% PAS III, after UVA illumination
Excerpt: […] When designing a "capture" or "scrub" device for psoralen removal, an important consideration is the identification and quantification of the residual levels of low molecular weight photoproducts. Several properties of the platelet mixture (e.g., lipid content, platelet content, hemoglobin/RBC content) can affect the final partitioning of psoralen and the amount of each photoproduct that must be removed during the capture or scrub process.
Upon addition of S-59 to platelets, the S-59 rapidly partitions, establishing an equilibrium between S-59 in the plasma and S-59 within the platelets. […] In addition, higher percentages of S-59 will partition to the platelets if long incubation periods (e.g., greater than 60 minutes) occur between the addition of S-59 and illumination with UVA. The amount of S-59 which partitions to the platelets ultimately determines how much S-59 remains associated with platelets, how much is associated with plasma macromolecules, and how much remains as free photoproduct.
During the UVA illumination process, S-59 undergoes a photochemical reaction to form several low molecular weight photoproducts in addition to associating with macromolecules in both the platelet and the plasma fractions. […]
The S-59 which is not amenable to removal by the scrub/capture process can also be monitored using ^3H-labeled S-59. This non-removable fraction, which represents 27% of the original 150 µM S-59, is covalently associated with macromolecules (e.g., lipids) in the platelet and plasma fractions.
As discussed previously. S-59 uptake by platelets can occur over a period of several hours before saturation occurs. FIG. 25A graphically depicts S-59 (C0 = 50 µM) uptake by platelets over time (top) and S-59 release by platelets over time (bottom). As shown in the top graph, S-59 equilibrium is achieved at approximately two hours.

[2] = system: GMP-140 expression on platelets; assay: GMP-140 (p-selectin) expression on platelets, CD62 antibody, flow cytometry; assay type: cell-based, human; details: 100 µM compound, 5 Joules/cm^2, 5 days storage (FIGS. 21C-24C)
Experimental: To measure the effects of the present compounds and methods of decontamination on platelet function using these four indicators, four samples were prepared for each compound tested, two control samples and two containing compound. […] These were each transferred under sterile conditions to 50 ml centrifuge tubes, then aliquots of each unit were transferred into a second set of 50 ml sterile centrifuge tubes. […] The samples were pipetted gently up and down to mix. […] Samples were treated in one of two different sized bags, having either 3 ml or 8 ml capacity. […] For each compound tested, two control samples without compound were prepared by again removing aliquots of platelet concentrate (17 ml if using an 8 ml bag, 4 ml if using a 3 ml bag) from the same one of the first set of 50 ml centrifuge tubes from which the compound sample was drawn, and dividing into Medibags, as before. […]

[3] = HPLC analysis of residual S-59 and photoproducts in PC after UVA and 8-hour treatment with RD containing Dowex XUS-43493; assay type: physicochemical; details: 150 µM S-59, 3 Joules/cm^2 UVA, RD (Dowex XUS-43493) for 8 hours
Experimental: Briefly, the assay involved an initial sample preparation which lyses the platelets and solubilizes the S-59 and photoproducts. The supernatant from the sample preparation was then analyzed on a C-18 reverse phase column with a gradient of increasing methanol in KH2PO4 buffer. The major peaks were detected by optical absorbance. […] Samples of the treated PC were then taken and subjected to HPLC for detection of residual S-59 and S-59 photoproducts. Post-incubation levels of photoproducts D, E, and F (S-59) are presented in Table N; photoproducts A, B, C, and G were not detectable by HPLC. Levels of residual photoproducts are average values taken from six independent, photochemically- and RD-treated platelet units. […] The PC was assayed for unbound photoproducts using the HPLC assay discussed above, which quantifies the photoproducts present both within the platelets and in the plasma/PAS III mixture. […] In addition to assaying the complete PC, samples were centrifuged to remove the platelets so that unbound photoproducts in the plasma/PAS III could be analyzed separately. […] To evaluate the efficacy of the RD for reducing the concentration of S-59. platelet samples from the test unit were analyzed for S-59 content by HPLC. […] The concentration of S-59 before and after UVA illumination and the reduction in the concentration of residual S-59 following RD treatment were measured by HPLC analysis. […]

Structure (SMILES): Cc1oc2c(C)c3oc(=O)cc(C)c3cc2c1COCCN [Compound 2, 4'-(4-amino-2-oxa)butyl-4,5',8-trimethylpsoralen]
- non-removable fraction of original S-59, covalently associated with macromolecules [1]: 27%
- original S-59 associated with plasma macromolecules [1]: approximately 15%
- original S-59 associated with the platelets [1]: Approximately 20%
- original S-59 in plasma as S-59 and low molecular weight photoproducts [1]: approximately 65%
- original S-59 in platelets as S-59 and low molecular weight photoproducts [1]: 8-9%
- original S-59 in platelets associated with macromolecules [1]: 11-12%
- original S-59 that remains in the plasma [1]: approximately 80%
- GMP-140 expression, PCD sample versus day 5 untreated control (D5) [2]: little or no difference
- concentration of residual S-59 after RD treatment ([3]; listed as S-59): ≤ 0.3 µM
- concentration of residual S-59 after RD treatment ([3]; listed as S-S9): 0.27 ± 0.05 µM

Structure (SMILES): Cc1oc2c(C)c3oc(=O)cc(C)c3cc2c1CNCCCCN [Compound 6, 4'-(6-amino-2-aza)hexyl4,5',8-trimethylpsoralen]
- GMP-140 expression, PCD sample versus day 5 untreated control (D5) [2]: little or no difference

Structure (SMILES): Cc1cc(=O)oc2c(C)c3oc(CNCCCCN)c(C)c3cc12 [Compound 17, 5'-(6-amino-2-aza)hexyl-4,4',8-trimethylpsoralen]
- GMP-140 expression, PCD sample versus day 5 untreated control (D5) [2]: little or no difference

Structure (SMILES): Cc1cc(=O)oc2c(C)c3oc(COCCN)c(C)c3cc12 [Compound 18, 5'-(4-amino-2-oxa)butyl-4,4',8-trimethylpsoralen]
- GMP-140 expression, PCD sample versus day 5 untreated control (D5) [2]: a notable increase above the control
